Measured values from several laboratories, pooled; numbers as filed in NIAID ChemDB.

Shared fields: whole-cell or culture tests; agent: Mycobacterium avium

A number after MIC or MFC names an inhibition level or a share of isolates. Conditions beyond the fields shown may differ between rows. Blank or dashed fields: not listed here. a–b is a range or a potency band. ECn is the concentration giving n% inhibition of infection, replication or growth.

structure	measure	setting	method	strain or isolate	result
CC[C@@H](CO)NCCN[C@@H](CC)CO	MIC	-	-	RG4	32 µg/mL
Cc1cc(CN2CCN(C)CC2)c(C)n1C1CCCCC1	MIC	-	-	103317	>64 µg/mL
CC[C@@H](CO)NCCN[C@@H](CC)CO	MIC	-	-	ATCC 25291	16 µg/mL
CCn1cc(C(=O)O)c(=O)c2cc(F)c(-n3cccc3)cc21	EC50	pH 6.8	-	-	<3 µg/mL
CC(=O)Nc1ccc(/C=N/NC(N)=S)cc1	MIC	-	-	A71	1 µg/mL
CC12CCC(C3=C(C1=O)[Se](=O)C1=C(O3)C3CCC(C)(C1=O)C3(C)C)C2(C)C	MIC	-	-	-	33.98 µg/mL
O=c1c2ccccc2nc2n1CCc1c-2[nH]c2ccccc12	MIC	-	broth dilution / resazurin	ATCC 15769	>2000 µM
CCCCCCn1c(C)cc(CN2CCOCC2)c1C	MIC	-	-	103317	>64 µg/mL
CN1CCN(c2cc3c(cc2F)c(=O)c(C(=O)O)cn3-c2ccc(F)cc2)CC1	MIC	-	-	ATCC 25291	>64 µg/mL
COc1ccc(-c2cn(C)cc2[N+](=O)[O-])c(Cl)c1	MIC	-	-	CIP103317	16 µg/mL
CCCCCCCCCCCCS(=O)(=O)C[C@@H]1N[C@H](CO)[C@@H](O)[C@@H]1O	MIC	-	-	3 to 5 strains	32–128 µg/mL
c1ccc(C2=NCCN2)c(NCc2cccc3ccccc23)c1	MIC	-	-	103317	4 µg/mL
CO[C@H]1/C=C/O[C@@]2(C)Oc3c(C)c(O)c4c(O)c(c5c(c4c3C2=O)NC2(CCN(CC(C)C)CC2)N=5)=NC(=O)/C(C)=C\C=C\[C@H](C)[C@H](O)[C@@H](C)[C@@H](O)[C@@H](C)[C@H](OC(C)=O)[C@@H]1C	MIC	-	-	Isolate 90-1799	>1 µg/mL
CC[C@H]1OC(=O)[C@H](C)[C@@H](O[C@H]2C[C@@](C)(OC)[C@@H](O)[C@H](C)O2)[C@H](C)[C@@H](O[C@@H]2O[C@H](C)C[C@H](N(C)C)[C@H]2O)[C@](C)(OC)C[C@@H](C)C(=O)[C@H](C)[C@@H](O)[C@]1(C)O	MIC	pH 7.4	broth dilution / radiometric	1625	1 µg/mL
CC[C@H]1OC(=O)[C@H](C)[C@@H](O[C@H]2C[C@@](C)(OC)[C@@H](O)[C@H](C)O2)[C@H](C)[C@@H](O[C@@H]2O[C@H](C)C[C@H](N(C)C)[C@H]2O)[C@](C)(O)C[C@@H](C)CN(C)[C@H](C)[C@@H](O)[C@]1(C)O	MIC	-	-	453-C clarithromycin-resistant	>512 µg/mL
COC1=C(C)C(=O)c2cc(=O)n(C)cc2C1=O	MIC	-	-	-	25 µg/mL
O=C(O)c1cc([N+](=O)[O-])c2oc3ccc([N+](=O)[O-])cc3c(=O)c2c1	MIC	-	-	SN 304	>32 µg/mL
COc1c(N2CCNC(C)C2)c(F)cc2c(=O)c(C(=O)O)cn(C3CC3)c12	MIC	-	broth dilution	N-444	2 µg/mL
CN(C)C(=S)Oc1ccc(Cl)cc1C(=O)Nc1ccc(Cl)cc1	MIC	21 d	broth dilution	330/88	21 µM
CCCNC(=O)Nc1ccc(S(=O)(=O)Nc2cc(C)on2)cc1	MIC100	14 d	broth dilution / absorbance	330/88	1000 µM
CCn1cc(C(=O)O)c(=O)c2cc(F)c(N3CCNCC3)cc21	MIC90	-	-	63 strains	>16 µg/mL
NNC(=O)c1ccncc1	MIC	-	broth dilution / visual reading	-	0.1 µg/mL
CCCCCCCCCCCCSC[C@@H]1N[C@H](CO)[C@@H](O)[C@@H]1O	MIC	-	-	3 to 5 strains	16 µg/mL
CO[C@H]1/C=C/O[C@@]2(C)Oc3c(C)c(O)c4c(O)c(c5c(c4c3C2=O)NC2(CCN(CC(C)C)CC2)N=5)=NC(=O)/C(C)=C\C=C\[C@H](C)[C@H](O)[C@@H](C)[C@@H](O)[C@@H](C)[C@H](OC(C)=O)[C@@H]1C	MIC90	-	-	Reference strains	2 µg/mL
C[C@@H]1CN(c2c(F)c(N)c3c(=O)c(C(=O)O)cn(C4CC4)c3c2F)C[C@H](C)N1	MIC	-	-	MTCC1723	0.08 µg/mL
CC[C@@H](CO)NCCN[C@@H](CC)CO	MIC90	-	-	Reference strains	16 µg/mL
c1ccc2[nH]c(SCc3ccncc3)nc2c1	MIC	-	-	MY330/88	500 µM
O=C(Nc1cccc(Cl)c1)c1ccccc1O	MIC	-	-	MY330/88	31 µM
c1ccc2c(CSc3ncn[nH]3)cccc2c1	MIC	-	-	MY330/88	250 µM
COC(=O)c1cccc2c(=O)c3ccccc3oc12	MIC	-	-	SN 304	>32 µg/mL
C[C@]1(/C=C/Cl)C[C@](Cl)(CBr)[C@@H](Br)C[C@H]1Cl	MIC	-	-	-	64 µg/mL
O=c1[nH]c2ccccc2c(=O)n1-c1ccc(F)cc1	MIC	-	-	MY330/88	>125 µM
O=C(O)c1cn(C2CC2)c2cc(N3CCNCC3)c(F)cc2c1=O	EC50	-	-	-	380 µg/mL
CCN1C(C#N)=C(C#N)N=C(c2cccs2)[C@@H]1/C=C/c1ccccc1	MIC	-	broth dilution / visual reading	-	12.5 µg/mL
O=c1oc2ccccc2c(=O)n1-c1ccc(F)cc1	MIC	-	-	MY330/88	125 µM
COC(=O)c1cccc2oc3ccccc3c(=O)c12	MIC	-	-	SN 304	>32 µg/mL
CCN1C(C#N)=C(C#N)N=C(c2ccsc2)[C@@H]1/C=C/c1ccccc1	MIC	-	broth dilution / visual reading	-	12.5 µg/mL
NC(=O)c1ccc2c(=O)c3ccccc3oc2c1	MIC	-	-	SN 304	>16 µg/mL
O=C(O)c1cn(C2CC2)c2c(F)c(N3CCN4CCC3C4)c(F)cc2c1=O	MIC	-	-	101	2 µg/mL
CCN1CC(c2ccccc2)NC(C#N)=C1C#N	MIC	-	broth dilution / visual reading	-	1.5 µg/mL
COc1cc(=O)n(C)c2ccccc12	MIC	-	broth dilution / resazurin	ATCC 15769	>2000 µg/mL
Cc1cc(-c2cc3c(cc2F)c(=O)c(C(=O)O)cn3C2CC2)cc(C)n1	MBC	-	-	453	2 µg/mL
CCNC(=O)Nc1ccc(S(=O)(=O)Nc2cc(C)on2)cc1	MIC100	14 d	broth dilution / absorbance	330/88	1000 µM
CC[C@H]1OC(=O)[C@H](C)[C@@H](O[C@H]2C[C@@](C)(OC)[C@@H](O)[C@H](C)O2)[C@H](C)[C@@H](O[C@@H]2O[C@H](C)C[C@H](N(C)C)[C@H]2O)[C@](C)(OC)C[C@@H](C)C(=O)[C@H](C)[C@@H](O)[C@]1(C)O	MIC	-	-	3011-C clarithromycin-resistant	128 µg/mL
CCCCCCCCCCCCS(=O)C[C@@H]1N[C@H](CO)[C@@H](O)[C@@H]1O	MIC	-	-	3 to 5 strains	32–64 µg/mL
CCCCCNC(=O)Nc1ccc(S(=O)(=O)Nc2cc(C)on2)cc1	MIC100	14 d	broth dilution / absorbance	330/88	500 µM
CO[C@H]1/C=C/O[C@@]2(C)Oc3c(C)c(O)c4c(O)c(c5c(c4c3C2=O)NC2(CCN(CC(C)C)CC2)N=5)=NC(=O)/C(C)=C\C=C\[C@H](C)[C@H](O)[C@@H](C)[C@@H](O)[C@@H](C)[C@H](OC(C)=O)[C@@H]1C	MBC	-	-	211-5	4 µg/mL
CC1(C)CC(=NO)C2[Se]ON=C2C1	MIC	-	-	-	8.47 µg/mL
CC[C@@H](CO)NCCN[C@@H](CC)CO	MIC	-	-	ATCC 15769	14.4 µM
CC[C@H]1OC(=O)[C@H](C)[C@@H](O[C@H]2C[C@@](C)(OC)[C@@H](O)[C@H](C)O2)[C@H](C)[C@@H](O[C@@H]2O[C@H](C)C[C@H](N(C)C)[C@H]2O)[C@](C)(O)C[C@@H](C)C(=O)[C@H](C)[C@@H](O)[C@]1(C)O	MIC90	-	-	Reference strains	>16 µg/mL
CC1COc2c(N3CCN(C)CC3)c(F)cc3c(=O)c(C(=O)O)cn1c23	MIC	-	-	Isolate 7497	1.25 µg/mL
NCCC(O)C(=O)N[C@@H]1C[C@H](N)C(O[C@H]2O[C@H](CN)[C@@H](O)[C@H](O)[C@H]2O)[C@H](O)[C@H]1O[C@H]1O[C@H](CO)[C@@H](O)[C@H](N)[C@H]1O	MIC90	-	-	Clinical strains	16 µg/mL
CC(C)N=c1cc2n(-c3ccc(Cl)cc3)c3ccccc3nc-2cc1Nc1ccc(Cl)cc1	MIC	-	-	453-C clarithromycin-resistant	0.06 µg/mL
CC[C@H]1OC(=O)[C@H](C)[C@@H](O[C@H]2C[C@@](C)(OC)[C@@H](O)[C@H](C)O2)[C@H](C)[C@@H](O[C@@H]2O[C@H](C)C[C@H](N(C)C)[C@H]2O)[C@](C)(O)C[C@@H](C)C(=O)[C@H](C)[C@@H](O)[C@]1(C)O	MIC	-	-	ATCC 25291	16 µg/mL
CCN1C(C#N)=C(C#N)N=C(c2cccs2)C1/C=C/c1ccc(-c2ccccc2)cc1	MIC	-	broth dilution / visual reading	-	12.5 µg/mL
N[C@@H]1CN(c2c(F)cc3c(=O)c(C(=O)O)cn([C@@H]4C[C@@H]4F)c3c2Cl)CC12CC2	MIC	-	broth dilution	N-444	2 µg/mL
c1ccc2c(CSc3nc4ccccc4o3)cccc2c1	MIC	-	-	MY330/88	125 µM
Cc1c(CN2CCN(C)CC2)cc(-c2ccc(Cl)cc2)n1Cc1ccccc1	MIC	-	-	103317	8 µg/mL
CC(=O)NCC1CN(c2ccc(C(C)=O)cc2)C(=O)O1	MIC	-	-	1 isolates	>250 µg/mL
Cc1c(CN2CCN(C)CC2)cc(-c2ccc(Cl)cc2)n1-c1ccc(Cl)cc1	MIC	-	-	103317	0.4 µg/mL
Cc1ccc2c(=O)c3ccccc3oc2c1	MIC	-	-	SN 304	>32 µg/mL
N#Cc1cc(SCc2ccccn2)ccn1	MIC	-	-	MY330/88	125 µM
CCCCCCn1c(C)c(CN2CCOCC2)c(CN2CCOCC2)c1C	MIC	-	-	103317	>64 µg/mL

3 of the rows above, restated:

structure | measure | setting | method | strain or isolate | result
N#Cc1cc(SCc2ccccn2)ccn1 | MIC | - | - | MY330/88 | 125 µM
CC[C@H]1OC(=O)[C@H](C)[C@@H](O[C@H]2C[C@@](C)(OC)[C@@H](O)[C@H](C)O2)[C@H](C)[C@@H](O[C@@H]2O[C@H](C)C[C@H](N(C)C)[C@H]2O)[C@](C)(OC)C[C@@H](C)C(=O)[C@H](C)[C@@H](O)[C@]1(C)O | MIC | pH 7.4 | broth dilution / radiometric | 1625 | 1 µg/mL
CO[C@H]1/C=C/O[C@@]2(C)Oc3c(C)c(O)c4c(O)c(c5c(c4c3C2=O)NC2(CCN(CC(C)C)CC2)N=5)=NC(=O)/C(C)=C\C=C\[C@H](C)[C@H](O)[C@@H](C)[C@@H](O)[C@@H](C)[C@H](OC(C)=O)[C@@H]1C | MIC | - | - | Isolate 90-1799 | >1 µg/mL